Compound potency records, mixed from different reports. Data source: NIAID ChemDB in PubChem.

All rows: cytotoxicity tests; cell line: MT-4; read-out: CC50

Rows are shuffled and stem from different studies.

SMILES,method,result
CCOC(=O)c1cc(-c2cccc(OC)c2)n(-c2cccc(Cl)c2)c1C,,100 µM
CCOP(=O)(OCC)C(N[C@@H](Cc1ccccc1)[C@H](O)CN(CC(C)C)S(=O)(=O)c1ccc(OC)cc1)c1ccc2c(c1)OCO2,MTT,13.2 µg/mL
COc1cccc(-c2cc(C(C)=O)c(C)n2-c2cccc(N)c2)c1,,10.2 µM
Nc1nc(=S)c2ncn(CCOCP(=O)(O)O)c2[nH]1,,>8.9 µg/mL
CN1CCn2c(nc(C(=O)NCc3ccc(F)cc3)c(O)c2=O)C1CN(C)S(=O)(=O)N(C)C,microscopy,>10 µM
CC(C)(C)NC(=O)[C@@H]1C[C@@H]2CCCC[C@@H]2CN1C[C@H](O)CNC(=O)[C@@H]1N[C@@H]([C@H](NC(=O)Cc2ccccc2)C(=O)NCc2ccccc2)SC1(C)C,,>100 µM
C[C@H](CS)C(=O)N1CCC[C@@H]1c1nc2c([N+](=O)[O-])cccc2[nH]1,MTT,11.27 µg/mL
[N-]=[N+]=N[C@@]1(CO)CO[C@H](n2cnc3c(N)ncnc32)C1,,>100 µg/mL
COC1=NC=C[C@H](O)C(O[C@@H]2O[C@H](CO)[C@@H](O)[C@H](O)[C@H]2O)S1,MTT / absorbance,>100 µM
C[C@H](CS)C(=O)N1CCC[C@@H]1c1nc2ccccc2s1,MTT,15.8 µg/mL
CC(=O)N1CCn2c(nc(C(=O)NCc3ccc(F)cc3)c(O)c2=O)C1(C)C,microscopy,>1 µM
N#Cc1ccc(NC2=NS(=O)(=O)NC(Cc3ccccc3)=C2)cc1,MTT,369 µM
C=C(C)COCn1c(Cc2ccccc2)c(CO)c(=O)[nH]c1=O,MTT,>100 µM
CCOP(=O)(OCC)C(N[C@@H](Cc1ccccc1)[C@@H](O)CN(CC(C)C)S(=O)(=O)c1ccc(OC)cc1)c1ccc2c(c1)OCO2,MTT,13.73 µg/mL
C#C[C@@]1(O)[C@@H](CO)O[C@@H](n2ccc(N)nc2=O)[C@@H]1O,MTT,0.02 µM
CN(C)C(=O)C(=O)N(C)C1CN(C2CC2)CCn2c1nc(C(=O)NCc1ccc(F)c(Cl)c1)c(O)c2=O,microscopy,>1 µM
CCCCCCCNC(=O)[C@@H](NC(=O)Cc1ccccc1)[C@@H]1N[C@@H](C(=O)NCC(O)CN2C[C@H]3CCCC[C@H]3C[C@H]2C(=O)NC(C)(C)C)C(C)(C)S1,,>100 µM
O=C1N(Cc2ccc(Cl)cc2Cl)c2cccn2S(=O)(=O)N1Cc1cccc(Cl)c1,MTT,251 µM
CC(/C=C/C=C\C=C\C=C(/C)C(=O)NC(C)CO)=C\C(C)C(O)/C(C)=C/C(C)CCc1ccccc1,,102 µM
COc1ccc2c(c1)c1cc(C(C)=O)c(C)n1c1cccc(N)c21,,40 µM
O=S1(=O)N=C(Nc2ccc(Cl)c(F)c2)C=C(Cc2ccc3ccccc3c2)N1,MTT,152 µM
C#CCOCn1c(Cc2ccccc2)c(CF)c(=O)[nH]c1=O,MTT,>100 µM
Cc1cn([C@@H]2O[C@H](CO)C3(OS(=O)(=O)C=C3N)[C@H]2O[Si](C)(C)C(C)(C)C)c(=O)[nH]c1=O,,106 µg/mL
C=CCOCn1c(Cc2ccccc2)c(CO)c(=O)[nH]c1=O,MTT,>100 µM
C#C[C@@]1(O)[C@@H](CO)O[C@@H](n2ccc(=O)[nH]c2=O)[C@@H]1O,MTT,0.03 µM
Cc1ccc(NC2=NS(=O)(=O)NC(Cc3ccccc3)=C2)cc1C,MTT,177 µM
CCOP(=O)(OCC)C(N[C@@H](Cc1ccccc1)[C@H](O)CN(CC(C)C)S(=O)(=O)c1ccc(OC)cc1)c1ccc([N+](=O)[O-])cc1,MTT,14.24 µg/mL
Nc1nc2c(ncn2[C@H]2C=C[C@@H](CO)O2)c(=O)[nH]1,,11 µM
Cn1c2ccccc2c(=O)c2c(O)cccc21,,15 µg/mL
O=C1N(Cc2ccc(F)cc2)c2cccn2S(=O)(=O)N1Cc1ccccc1,MTT,190 µM
CCc1nc([N+](=O)[O-])c(N2CCN(C(=O)CSC[C@@H](C)C(=O)N3CCC[C@@H]3C(=O)O)CC2)n1Cc1ccccc1,MTT,2.23 µg/mL
Nc1ncnc2c1ccn2CCOCP(=O)(O)O,,>7.56 µg/mL
O=C1N(Cc2ccccc2Cl)c2cccn2S(=O)(=O)N1Cc1ccccc1,MTT,>311 µM
Nc1nc(N)c2ncn(CCOCP(=O)(O)O)c2n1,,>2.67 µg/mL
[N-]=[N+]=N[C@@]1(CO)CO[C@@H](n2cnc3c(N)ncnc32)C1,,>100 µg/mL
Oc1cc(/C=C/c2cc(O)c(O)c(O)c2)cc(O)c1O,MTT,11.9 µM
COc1ccc(NC2=NS(=O)(=O)NC(Cc3ccc4ccccc4c3)=C2)cc1,MTT,165 µM
COc1ccc(C2(c3ccc(OC)cc3)OC(=O)c3cccc4cccc2c34)cc1,,26 µM
Nc1ncnc2c1ncn2[C@H]1C[C@H]2OC[C@@H](O)[C@H]2O1,,>100 µM
CC1(C)c2nc(C(=O)NCc3ccc(F)cc3)c(O)c(=O)n2CCN1CCN1CCOCC1,microscopy,>1 µM
CCOP(=O)(OCC)C(N[C@@H](Cc1ccccc1)[C@H](O)CN(CC(C)C)S(=O)(=O)c1ccc(OC)cc1)c1ccc(C)cc1,MTT,2.47 µg/mL
Nc1ncnc2c1ncn2[C@@H]1C[C@](N)(CO)CO1,,>100 µg/mL
CC(C)(C)NC(=O)[C@@H]1C[C@@H]2CCCC[C@@H]2CN1C[C@@H](O)CNC(=O)[C@@H]1N[C@@H]([C@H](NC(=O)Cc2ccccc2)C(=O)NCc2ccccc2)SC1(C)C,,>100 µM
CC1(C)c2nc(C(=O)NCc3ccc(F)cc3)c(O)c(=O)n2CCN1Cc1ccn[nH]1,microscopy,>1 µM
O=S(=O)(O)c1ccc2c(OS(=O)(=O)c3cccc4c(S(=O)(=O)O)cccc34)cc(S(=O)(=O)O)cc2c1,,>500 µM
N#CCN1C(=O)N(Cc2cccc(F)c2)S(=O)(=O)n2cccc21,MTT,187 µM
CCNC(=O)[C@@H](NC(=O)Cc1ccccc1)[C@@H]1N[C@@H](C(=O)NC[C@H](O)CN2C[C@H]3CCCC[C@H]3C[C@H]2C(=O)NC(C)(C)C)C(C)(C)S1,,>100 µM
O=C1N(Cc2ccccc2)c2cccn2S(=O)(=O)N1Cc1ccccc1,MTT,267 µM
CCOP(=O)(OCC)C(N[C@@H](Cc1ccccc1)[C@@H](O)CN(CC(C)C)S(=O)(=O)c1ccc(OC)cc1)C(C)C,MTT,13.68 µg/mL
C[C@H](CS)C(=O)N1CCC[C@@H]1c1nc2c(Cl)cccc2[nH]1,MTT,28.17 µg/mL
CCCCOP(=O)(N[C@@H](Cc1ccccc1)[C@H](O)CN(CC(C)C)S(=O)(=O)c1ccc(OC)cc1)OCCCC,MTT,13.08 µg/mL
Cc1cn(CCCCO[C@@H]2O[C@H](CO)[C@@H](N=[N+]=[N-])[C@H]2O)c(=O)[nH]c1=O,MTT,>190 µg/mL
CC[C@H](C)[C@H](NC(=O)C[C@H](O)[C@H](CC(C)C)NC(=O)[C@H](C)NC(=O)[C@H](CCC(=O)O)NC(C)=O)C(N)=O,,1200 µM

A second listing of 3 rows from above:

SMILES | method | result
CCOP(=O)(OCC)C(N[C@@H](Cc1ccccc1)[C@@H](O)CN(CC(C)C)S(=O)(=O)c1ccc(OC)cc1)C(C)C | MTT | 13.68 µg/mL
C#CCOCn1c(Cc2ccccc2)c(CF)c(=O)[nH]c1=O | MTT | >100 µM
Nc1nc(=S)c2ncn(CCOCP(=O)(O)O)c2[nH]1 |  | >8.9 µg/mL

An empty or dashed field is not shown. CCn is the concentration with n% toxicity to the cells.